Results on five compounds are retold here after ChEMBL document CHEMBL1681701, “Huprines as a new family of dual acting trypanocidal-antiplasmodial agents” (Bioorg Med Chem, 2011).

Data set [1] concerns Trypanosoma brucei. The experiment in a line: Trypanocidal activity against bloodstream form of Trypanosoma brucei 427 after 48 hrs.
Data set [2] deals with Plasmodium falciparum. Put plainly: Antiplasmodial activity against chloroquine-resistant Plasmodium falciparum K1. The class given is functional, organism-based. The gist of the method: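 K1 parasites grown in human A+ erythrocytes in RPMI 1640 with A+ serum and D-glucose; predominantly early ring-stage cultures used. Twofold serial dilutions run in duplicate from DMSO stocks (final DMSO ≤0.5%), at 2.5% haematocrit and 1% parasitaemia. Incubation was 48 h at 37 °C under 93% N2/3% O2/4% CO2. Growth was read as lactate dehydrogenase activity (APAD/NBT, 550 nm), and IC50 was taken by linear regression.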

A short description of data set [3]: Selectivity index, ratio of IC50 for rat L6 cells to IC 50 for Trypanosoma brucei 427.
The nature of data set [4]: Selectivity index, ratio of IC50 for rat L6 cells to IC50 for chloroquine-resistant Plasmodium falciparum K1.

`CCC1=CC2Cc3nc4cc(F)ccc4c(N)c3C(C1)C2` (configuration not stated): the IC50 (commonly the concentration at which inhibition is half-maximal) in data set [1] came to 4.16 µM. That is a single-digit micromolar value. Consider `CCC1=CC2Cc3nc4cccc(F)c4c(N)c3C(C1)C2` (configuration not stated), for which the IC50 in data set [1] is 5.96 µM.

Consider `CCCCC1=CC2Cc3nc4ccccc4c(N)c3C(C1)C2` (configuration not stated), for which the values for the IC50 in data set [1] and in data set [2] were 0.7 µM and 5.99 µM, respectively.

`CCCCC1=CC2Cc3nc4ccccc4c(N)c3C(C1)C2.Cl` (configuration not stated): the Selectivity Index was 9.6 in data set [3] and 1.12 in data set [4]. Take `CCC1=CC2Cc3nc4ccc(Cl)cc4c(N)c3C(C1)C2` (configuration not stated): 2.15 µM corresponded to half-maximal inhibition in data set [1] (IC50).
